# Results deposited as PubChem BioAssay AID504761 (Drosophila RNAi Screening Center, 2011)
# Test: 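Fly genes whose silencing reduces dengue virus type 2 infection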 (primary screen)
# System: D.Mel-2 cells from Drosophila
# Reagent: long dsRNA against Drosophila genes
# Treatment: infection with dengue virus type 2; dose and infection time not stated
# Measurement: 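Per well on two replicate plates, imaging gave the percent of cells positive for viral envelope protein, ranked by infection, and a nuclear count of cells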
# Reading the numbers: infection score: higher = more virus-infected cells; cell count: higher = more cells in the well
# Rule for the call: 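Low infection ranks in the two replicates (chance level up to 0.065) followed by a retest with a 1.5-fold or larger significant decrease, p below 0.05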
# Calls: active = confirmed: knock-down lowers infection; inactive = not picked or not confirmed
# The screen tested about 22,000 reagents; shown is an unselected part of those that have a named target and a result. Over the whole deposit, 116 (0.52%) were called active. 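Calls depend on retest data that are not deposited; infection was ranked per plate without normalising between plates; the unit of the infection score is not given.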 The raw values are shown without normalisation. Names joined by + are all predicted targets of the reagent. Further read-outs or replicates are left out here. Not stated in the record: the amount of reagent, the time to read-out.
predicted target,dsRNA,"infection score, replicate 1","infection score, replicate 2","cell count, replicate 1",outcome
CG11099,DRSC06034,2.98,2.78,5645,inactive
Vdup1,DRSC08586,2.5,4.24,6573,inactive
CG14246,DRSC14741,4.57,3.4,6175,inactive
CG14246,DRSC27766,9.66,21.8,6131,inactive
dwg,DRSC18766,9.85,2.34,1228,inactive
dwg,DRSC29174,16.2,15,4986,inactive
Rtca,DRSC18517,3.29,5.88,6257,inactive
orion,DRSC18213,38.3,25.7,5573,inactive
orion,DRSC18214,2.21,1.44,3945,inactive
asun,DRSC16733,4.84,4.35,6635,inactive
CG7567,DRSC16258,2.29,1.71,6693,inactive
Stlk,DRSC22687,5.19,1.25,6718,inactive
CG13538,DRSC04180,11.5,7.96,6271,inactive
CG1299,DRSC08300,3.94,4.76,5839,inactive
jigr1,DRSC15233,4.95,0.21,1496,inactive
jigr1,DRSC22617,6.89,8.88,6808,inactive
CG7789,DRSC16312,5.61,6.34,6473,inactive
CG4116,DRSC18348,5.5,0.85,4524,inactive
CG4116,DRSC29381,4.79,17.4,1128,inactive
CG17477,DRSC15239,2.91,,7104,inactive
CG17477,DRSC26513,1.21,0.69,6014,inactive
tara,DRSC23014,0.78,1.04,6418,inactive
tara,DRSC29664,16.3,24,2545,inactive
CG12288,DRSC02155,7.96,3.58,6234,inactive
Dgp-1,DRSC07400,16.5,7.41,5709,inactive
cu,DRSC15643,2.22,11.1,6308,inactive
cu,DRSC15648,3.92,25.1,6074,inactive
frac,DRSC10867,11.8,7.33,3223,inactive
frac,DRSC29239,7.02,11.8,883,inactive
CG10081,DRSC05962,1.44,3.38,6859,inactive
CG10081,DRSC24787,20.5,15.2,6629,inactive
ave,DRSC05502,2.3,4.51,5688,inactive
ave,DRSC28562,,15.9,363,inactive
Fa2h,DRSC06608,4.67,6.96,5755,inactive
Fa2h,DRSC06609,16.9,10.5,6458,inactive
CG31210 (retired record) + CG4836,DRSC22066,13.6,3.21,5832,inactive

Sorted by “infection score, replicate 1” (lowest first): some entries from above
predicted target,dsRNA,"infection score, replicate 1","infection score, replicate 2","cell count, replicate 1",outcome
orion,DRSC18214,2.21,1.44,3945,inactive
CG7567,DRSC16258,2.29,1.71,6693,inactive
Rtca,DRSC18517,3.29,5.88,6257,inactive
asun,DRSC16733,4.84,4.35,6635,inactive
Stlk,DRSC22687,5.19,1.25,6718,inactive
dwg,DRSC29174,16.2,15,4986,inactive
orion,DRSC18213,38.3,25.7,5573,inactive

Further records follow.
predicted target,dsRNA,"infection score, replicate 1","infection score, replicate 2","cell count, replicate 1",outcome
CG31624,DRSC02617,33.9,15.6,6056,inactive
Hsp68,DRSC16712,0.96,6.44,1250,inactive
CG4676,DRSC06879,24.8,15.4,5837,inactive
CG14391,DRSC14850,4.42,5.06,6238,inactive
CG14391,DRSC28373,17.6,12,4317,inactive
scaf6,DRSC10075,2.91,9.93,2820,inactive
scaf6,DRSC10676,1.21,1.08,6759,inactive
CCT7,DRSC16410,10.6,7.33,2873,inactive
LpR2,DRSC13726,2.95,2.31,6161,inactive
LpR2,DRSC13728,1.68,0.08,6181,inactive
LpR2,DRSC15655,1.79,4.82,6529,inactive
LpR2,DRSC25588,11.5,0.86,6634,inactive
Wdr62,DRSC00081,4.44,2.42,6617,inactive
Wdr62,DRSC21913,9.17,2.51,5842,inactive
nAChRalpha2,DRSC17009,38.2,4.22,5545,inactive
nAChRalpha2,DRSC24487,2.36,0.88,5639,inactive
wtrw,DRSC14241,4.02,6.38,6897,inactive
wtrw,DRSC15278,6.67,14.2,6475,inactive
wtrw,DRSC29977,11.5,1.61,6285,inactive
CG1275,DRSC08294,9.23,4.46,6858,inactive
CG9691,DRSC18441,5.27,3.48,6380,inactive
RpL35,DRSC18347,3.26,1.18,1656,inactive
